Values of other authors as cited in patent US9688856B2, “Biologically active silicic acid” (dated 2017).

Sequences of proteins named here, by UniProt entry; tags and fusion partners are left off. A change or cut given only in a name is not applied to a line headed by its entry.
UniProt P04191: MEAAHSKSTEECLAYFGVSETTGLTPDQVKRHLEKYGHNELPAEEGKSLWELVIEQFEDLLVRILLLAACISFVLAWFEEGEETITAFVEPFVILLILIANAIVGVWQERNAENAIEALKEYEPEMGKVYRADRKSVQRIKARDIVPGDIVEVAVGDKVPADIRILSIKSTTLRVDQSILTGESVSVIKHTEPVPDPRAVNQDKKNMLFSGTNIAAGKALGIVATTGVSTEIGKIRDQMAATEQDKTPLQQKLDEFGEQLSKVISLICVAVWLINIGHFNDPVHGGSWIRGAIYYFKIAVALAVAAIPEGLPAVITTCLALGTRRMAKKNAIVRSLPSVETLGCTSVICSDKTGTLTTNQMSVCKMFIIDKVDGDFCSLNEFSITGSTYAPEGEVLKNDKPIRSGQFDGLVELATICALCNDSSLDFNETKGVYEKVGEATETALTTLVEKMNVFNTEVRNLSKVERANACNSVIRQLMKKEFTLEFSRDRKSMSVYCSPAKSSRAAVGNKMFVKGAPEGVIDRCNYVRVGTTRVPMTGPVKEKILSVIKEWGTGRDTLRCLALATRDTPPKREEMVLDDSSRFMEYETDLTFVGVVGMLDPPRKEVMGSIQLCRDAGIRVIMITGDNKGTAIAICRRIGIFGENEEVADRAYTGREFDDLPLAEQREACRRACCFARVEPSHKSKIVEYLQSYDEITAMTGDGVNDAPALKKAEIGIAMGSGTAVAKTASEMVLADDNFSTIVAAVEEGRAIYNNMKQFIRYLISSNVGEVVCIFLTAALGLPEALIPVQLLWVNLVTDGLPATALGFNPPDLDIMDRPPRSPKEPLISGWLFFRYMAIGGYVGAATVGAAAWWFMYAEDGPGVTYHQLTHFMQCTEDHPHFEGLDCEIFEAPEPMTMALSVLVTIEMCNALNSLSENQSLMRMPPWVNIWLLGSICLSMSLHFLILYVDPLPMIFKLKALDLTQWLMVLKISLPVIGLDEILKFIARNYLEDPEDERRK

Biological target: Ca-ATPase pump of the endoplasmic reticulum (SERCA) (Oryctolagus cuniculus, UniProt P04191)
Conditions: prior art; cited from earlier work

For `CC[C@H](C)[C@H](NC(=O)CN)C(=O)NCC(=O)N[C@@H](C)C(=O)N[C@H](C(=O)N[C@@H](CC(C)C)C(=O)N[C@@H](CCCCN)C(=O)N[C@H](C(=O)N[C@@H](CC(C)C)C(=O)N[C@H](C(=O)N[C@H](C(=O)NCC(=O)N[C@@H](CC(C)C)C(=O)N1CCC[C@H]1C(=O)N[C@@H](C)C(=O)N[C@@H](CC(C)C)C(=O)N[C@H](C(=O)N[C@@H](CO)C(=O)N[C@@H](Cc1c[nH]c2ccccc12)C(=O)N[C@H](C(=O)N[C@@H](CCCCN)C(=O)N[C@@H](CCCNC(=N)N)C(=O)N[C@@H](CCCCN)C(=O)N[C@@H](CCCNC(=N)N)C(=O)N[C@@H](CCC(N)=O)C(=O)N[C@@H](CCC(N)=O)C(N)=O)[C@@H](C)CC)[C@@H](C)CC)[C@@H](C)O)[C@@H](C)O)C(C)C)C(C)C`, the “SERCA inhibition potency range of previous art inhibitors” value is listed as “micromolar (μM) range”.
